From paper PMC2797330

Molecular target: recombinant gp120MN (HIV-1 (isolate MN, clade B))
Experiment: ELISA; competition: CD4 added to gp120MN captured with D7324, 1 h at room temperature, then antibodies added for 1 h at 37°; antibody binding read, percent inhibition

**Q.** For “Recombinant soluble human CD4 (from UniProt P01730 26-396) (receptor)”, which percent inhibition of MAb 11A8 binding to gp120 at 10 nM sCD4 is on record?
**A.** Its percent inhibition of MAb 11A8 binding to gp120 at 10 nM sCD4 is 50%.

**Q.** What about the percent inhibition of MAb b12 binding to gp120 at 10 nM sCD4 of the same substance?
**A.** The percent inhibition of MAb b12 binding to gp120 at 10 nM sCD4 was 95%.
